This is an account of results in PMC3315491.

The target in the data set is T1, EspR (UniProt P9WJB7).
T1 sequence (looked up, limits assumed): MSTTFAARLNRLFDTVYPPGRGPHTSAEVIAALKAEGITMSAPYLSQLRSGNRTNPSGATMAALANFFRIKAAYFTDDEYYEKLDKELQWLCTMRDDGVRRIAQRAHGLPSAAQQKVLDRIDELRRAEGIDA
In words: DNase I footprinting. Conditions: 10 µM EspR, regions I and II protected; recombinant protein; label: 6-FAM 5' (forward strand); probe letters rebuilt from the primers and the genome.

Construct, isoform or probe ends are uncertain for at least one entry. Tags and fusion partners may be left off the protein sequences shown.

“GATAACCTGTGAAATCCGTTCGTCGTGTGGACACATCACCGAATCGGTTGGACCCTCATCGGGGGGGTCTTCGTTGACCCCTCACAACGTCAGCACCCAATCCGCTCAGGTTTGCACTTGGTTGTGGACACAACTGTCGCTACCATGATCAGCAAATACATACAGATAACCGTTTGCTCTTGGAGCCCGGTGGAGGTCACATCGATGAGCACGACGTTCGCTGCCCGCCTGAACCGCCTGTTCGACACGGTTTATCCGCCCGGACGCGGGCCACATACCTCCGCGGAGGTGATCGCGGCGCTCAAGGCAGAGGGCATCACGATGTCGGCTCCCTACCTATCACAGCTACGCTCAGGAAACC (double strand) [espR promoter footprint probe]”: the binding result is “binds”.
